Test results as given in article PMC12097015, “Development of MDM2‐Targeting PROTAC for Advancing Bone Regeneration” (Advanced Science, 2025).
The amount applied is not stated for every result.

System: hBMSCs
Assay: Bulk RNA-seq of cultured hBMSCs
Type: cell-based, human
Conditions: padj<0.05
Description: ‐Sample Preparation: In accordance with the manufacturer's instructions, total RNA was extracted using Trizol from hBMSCs treated with Nutlin‐3 or CL144 as well as from control cells. Utilizing an Agilent Bioanalyzer RNA ScreenTape kit (Agilent, 5067–5576), the integrity of the RNA (RIN) was verified. All samples with RIN value > 8.0 were used for sequencing.
‐Library Construction: RNA‐seq libraries were constructed according to the manufacturer's instructions for the SRSLY Library Prep kit, which were provided by Claretbio (CBS‐K155B‐24). […] This work fragmented and enriched the mRNA using oligo (dT). After ligating the cDNA fragments to adapters, PCR amplification was performed.
‐Sequencing: The libraries were performed to sequencing on the Nextseq2000 (Illumina) platform, utilizing the SRSLY RNA NanoPlus kit to generate 100 bp paired‐end reads.
‐Data Analysis: FastQC was used to trim the adaptor sequences and remove low‐quality reads from the raw sequencing data (FASTQ files). After that, Hisat2 v2.2.1 was used to align these clean reads with the Human Genome Reference GRCh38. DESeq2 was used for differential expression analysis, while g: Profiler was used for GO enrichment analysis.

| SMILES | differentially expressed genes (DEGs) versus Con |
| --- | --- |
| COc1ccc(C2=N[C@@H](c3ccc(Cl)cc3)[C@@H](c3ccc(Cl)cc3)N2C(=O)N2CCNC(=O)C2)c(OC(C)C)c1 [Nutlin-3, reference compound] | 7745 |
| COc1ccc(C2=N[C@H](c3ccc(Cl)cc3)[C@H](c3ccc(Cl)cc3)N2C(=O)N2CCN(CC(=O)NCCCCCCCCOc3cccc4c3C(=O)N(C3CCC(=O)NC3=O)C4=O)C(=O)C2)c(OC(C)C)c1 (stereo in doubt) [CL144] | 6932 |
